Pooled drug test results. Numbers come from NIAID ChemDB, via PubChem.

All rows: growth or infection tests; agent: HIV-1; read by: cytopathic effect; read-out: EC50

Rows are shuffled and stem from different studies.

structure | changes | cell line | strain or isolate | value
Nc1ncnc2c1ncn2[C@H]1C=C[C@@H](OCP(=O)(O)O)O1 |  | MT-4 |  | 1.5 µM
COP(=O)(c1cc(C)cc(CCC#N)c1)c1c(C(N)=O)[nH]c2ccc(Cl)c(F)c12 | K103/Y181C | MT-4 | BH10 | 0.0035 µM
O=C(CCCCc1ccccc1)c1ccc(O)cc1 |  |  |  | 2.14 µg/mL
Cc1cn([C@H]2C[C@H](N=[N+]=[N-])[C@@H](CO)O2)c(=O)[nH]c1=O |  | C8166 | RF | 0.00295 µg/mL
C/C=C(\C)C(=O)c1c(O)c2c(c3c(-c4ccccc4)cc(=O)oc13)OC(C)(C)C=C2 |  | CEM + CEM-SS | RF | 4 µg/mL
CC(C)(C)C(=O)Nc1ccn([C@H]2CC[C@@H](COC(=O)C(C)(C)C)O2)c(=O)n1 |  |  |  | >25 µM
O=S(=O)(O)c1ccc(NS(=O)(=O)c2ccc(-c3ccc(S(=O)(=O)Nc4ccc(S(=O)(=O)O)c5cccc(S(=O)(=O)O)c45)cc3)cc2)c2c(S(=O)(=O)O)cccc12 |  | MT-4 | IIIB | 18 µg/mL
C=Cc1nc2c(N)ncnc2n1[C@H]1CC[C@@H](CO)O1 |  | CEM |  | >20 µg/mL
Cc1cn(CCCO[C@@H]2O[C@H](CO)[C@@H](N=[N+]=[N-])[C@H]2O)c(=O)[nH]c1=O |  | MT-4 | IIIB | >100 µg/mL
Nc1nc2c(ncn2[C@H]2C[C@@H](F)[C@@H](CO)O2)c(=O)[nH]1 |  | MT-4 |  | >500 µM
Nc1ccn([C@H]2CC[C@@H](CO)O2)c(=O)n1 |  | MT-2 | IIIB | 0.29 µg/mL
C=C1CC[C@H]2[C@@](C)(CC/C(=N\O)[C@@]2(C)CO)[C@@H]1/C=C/C1=CCOC1=O |  | C8166 |  | 40.9 µM
Nc1ccn([C@H]2CC[C@@H](CO)O2)c(=O)n1 |  |  |  | <16 µM
O=C1c2ccccc2C(=O)c2c1ccc(O)c2O |  | SupT1 + Sup-T1 | IIIB | >50 µg/mL
CCO[C@H]1OC[C@H](Cc2ccc(O)c(OC)c2)[C@H]1Cc1ccc(O)c(OC)c1 |  |  |  | 2.09 µg/mL
C=C1CC[C@@H]2[C@](C)(CO)[C@H](O)CC[C@@]2(C)[C@@H]1CC(OC(C)=O)C1CCOC1=O |  | C8166 |  | 1.62 µM
O=C(O)CCC(CCC(=O)O)(CCC(=O)O)NC(=O)CCC(CCC(=O)NC(CCC(=O)O)(CCC(=O)O)CCC(=O)O)(CCC(=O)NC(CCC(=O)O)(CCC(=O)O)CCC(=O)O)NC(=O)CCCOC(=O)C1(C(=O)OCCCC(=O)NC(CCC(=O)NC(CCC(=O)O)(CCC(=O)O)CCC(=O)O)(CCC(=O)NC(CCC(=O)O)(CCC(=O)O)CCC(=O)O)CCC(=O)NC(CCC(=O)O)(CCC(=O)O)CCC(=O)O)C2c3cc4c5c6c3-c3c(cc7c8c3C6C3c6c-5c(cc5ccc9cc(c-8c3c9c65)C7)C4)C21 | AZT-resistant (RT 215/41) | PBMC |  | 0.97 µM
Cc1cn([C@H]2CC[C@@H](COC(=O)c3ccccc3)O2)c(=O)[nH]c1=O |  | CEM |  | <333 µM
CCC(=O)Nc1ccn([C@H]2CC[C@@H](COC(=O)CC)O2)c(=O)n1 |  |  |  | >25 µM
Cc1cc(-c2ccc(N=Nc3ccc4c(S(=O)(=O)O)cc(S(=O)(=O)O)c(N)c4c3O)c(C)c2)ccc1N=Nc1ccc2c(S(=O)(=O)O)cc(S(=O)(=O)O)c(N)c2c1O |  | ATH8 | HTLV-III/LAV | <10 µg/mL
C=C1CC[C@@H]2[C@](C)(CO)[C@H](O)CC[C@@]2(C)[C@@H]1CC(OC(=O)/C=C/c1ccc2c(c1)OCO2)C1CCOC1=O |  | C8166 |  | 1.505 µM
C=C(C)[C@@H]1CC[C@@H]2C(=CC[C@]3(C)[C@@H]([C@H](C)CC/C=C(/C)C(=O)O)CC[C@@]23C)[C@@]1(C)CCC(=O)O |  | C8166 |  | 8.23 µg/mL
COc1ccc(/C=N/N=C(/N)NO)cc1OC |  | CEM | IIIB | 19 µg/mL
Nc1nc(Cl)c2ncn([C@H]3CC[C@@H](CO)C3)c2n1 |  | MT-2 | IIIB | >100 µg/mL
CC(C)CCC[C@@H](C)[C@H]1CC[C@H]2[C@@H]3CC[C@H]4C[C@@H](CCC=C(c5cc(Cl)c(O)c(C(=O)O)c5)c5cc(Cl)c(O)c(C(=O)O)c5)CC[C@]4(C)[C@H]3CC[C@]12C |  | CEM + CEM-SS | RF | 2–15 µM
C=C1CC[C@H]2[C@@](C)(CC/C(=N\OC(=O)c3ccc(Cl)cc3)[C@@]2(C)CO)[C@@H]1/C=C/C1=CCOC1=O |  | C8166 |  | 21.96 µM
Cc1cn([C@H]2C[C@H](N=[N+]=[N-])[C@@H](CO)O2)c(=O)[nH]c1=O |  | C8166 |  | 0.00203 µg/mL
O=C1c2ccccc2C(=O)c2c1cc(S(=O)(=O)O)c(O)c2O |  | MT-4 | IIIB | 47.5 µg/mL
C=C(C)[C@@H]1CC[C@@H]2[C@]3(CC[C@]4(C)[C@@H]([C@H](C)CC/C=C(/C)C(=O)O)CC[C@@]24C)C[C@]13CCC(=O)O |  | C8166 |  | 28.97 µg/mL
Cc1cn([C@H]2C=C[C@@](C#N)(CO)O2)c(=O)[nH]c1=O |  | MT-2 |  | 7 µM
COc1ccc(/C=N/N=C(\N)NO)cc1O.Cc1ccc(S(=O)(=O)O)cc1 |  | CEM | IIIB | 26 µg/mL

4 of the rows above, restated:

structure	changes	cell line	strain or isolate	value
CC(C)(C)C(=O)Nc1ccn([C@H]2CC[C@@H](COC(=O)C(C)(C)C)O2)c(=O)n1				>25 µM
Cc1cn([C@H]2CC[C@@H](COC(=O)c3ccccc3)O2)c(=O)[nH]c1=O		CEM		<333 µM
Nc1ccn([C@H]2CC[C@@H](CO)O2)c(=O)n1		MT-2	IIIB	0.29 µg/mL
CCC(=O)Nc1ccn([C@H]2CC[C@@H](COC(=O)CC)O2)c(=O)n1				>25 µM

ECn: concentration that inhibits the pathogen or its effect by n%. An empty or dashed field is not shown. Two numbers with a dash give a range or band.